Data from patent WO2021105669A1, “Antibodies” (dated 2021).

Columns and labels:
Experiment in all cases: cell-based or functional assay
[1] = target: SUDV GP on S-FLU pseudotype virus (Sudan Ebola virus)
[2] = target: BDBV GP on S-FLU pseudotype virus (Bundibugyo Ebola virus)
[3] = target: EBOV GP on S-FLU pseudotype virus (Zaire Ebola virus)

Measured: neutralisation IC50 against that of CA45 in the same assay

B1: 11886 (antibody, V domains shown)
VH: QSVEESGGRLVTPGTPLTLTCIVSGFSLSNYYMSWVRQVPGKGLEWIGVIGWSGTSSYASWAKGRFTISKTASTTVDLKITSPTTEDTATYFCARVLYIGGGFNYYDAFDPWGPGTLVTVSS
VL: DVVMTQTPASVSEPVGGTVTIKCQASQSIGSNLAWYQQKPGQPPKLLIYAASTLASGVPSRFKGSGSGTEFTLTISDLECADAATYYCQCTYYDSSYVYNNFGGGTEVVVK
≤ 2.5 fold: all assays above
